Measured values from several laboratories, pooled; numbers as filed in NIAID ChemDB.

All rows: tests on isolated targets; agent: HIV-1; target: Integrase; measure: inhibition

Lines come from different laboratories, so protocols vary. Blank or dashed fields: not listed here. Percent inhibition refers to the dose given; in toxicity tests it is the harm to the cells.

compound | method | dose | value
CN(Cc1ccc(Cl)c(Cl)c1)C(=O)/C=C(\O)C(=O)O | strand transfer | 70 µM | 100%
COC(=O)/C(=C/c1cccc(OC)c1OCc1ccccc1)CNCc1cn([C@H]2C[C@H](n3cc(C)c(=O)[nH]c3=O)O[C@@H]2CO)nn1 | - | 10 µM | 43.4%
COc1ccc2[nH]c(=O)c(CNC3CCCCC3)cc2c1 | strand transfer / absorbance | 20 µM | 44.3%
O=C(NCCC(NC(=O)c1cc(O)c(O)c(O)c1)C(=O)O)c1cc(O)c(O)c(O)c1 | 3′ processing | 10 µM | 100%
COc1ccc(/C=C/c2ccc3c(Cl)cc(NS(=O)(=O)c4ccc(C)cc4)c(O)c3n2)cc1 | strand transfer | 0.05 µM | 54.6%
O=c1[nH]c2ccccc2cc1CNC1CCCCC1 | strand transfer / absorbance | 20 µM | 24.4%
O=C(/C=C/c1ccc(O)c(O)c1)NCCC(NC(=O)/C=C/c1ccc(O)c(O)c1)C(=O)O | 3′ processing | 10 µM | 93%
CCCCCCCCCCCCCCCC(=O)NC1C(COP(=O)(O)OC2C(O)C(COP(=O)(O)OC3CC(CO)OC3n3cnc4c(N)ncnc43)OC2n2cnc3c(N)ncnc32)OC(n2cnc3c(N)ncnc32)C1O | - | 1000 µM | 0%
COC(=O)C(CNCc1cn([C@H]2C[C@H](n3cc(C)c(=O)[nH]c3=O)O[C@@H]2CO)nn1)C(O)c1cc(Cl)ccc1OCc1ccccc1 | - | 10 µM | 32.6%
Cc1cc(C)n(Cc2ccc3[nH]cc(C(=O)O)c(=O)c3c2)n1 | strand transfer | 100 µg/mL | <50%
CN(CCOc1ccc(Cl)cc1Cc1ccccc1)C(=O)/C=C(\O)C(=O)O | strand transfer | 70 µM | 75%
Cc1ccc(S(=O)(=O)Nc2cc(Cl)c3ccc(/C=C/c4ccc(Br)cc4)nc3c2O)cc1 | strand transfer | 0.05 µM | 59.5%
CCCCOC(=O)C(CNCc1cn([C@H]2C[C@H](n3cc(C)c(=O)[nH]c3=O)O[C@@H]2CO)nn1)C(O)c1cccc(OCC)c1O | - | 10 µM | 26.7%
COc1ccc2[nH]c(=O)c(CNC3CCCC3)cc2c1 | strand transfer / absorbance | 20 µM | 60.1%
O=C(NCCCC(NC(=O)c1cc(O)c(O)c(O)c1)C(=O)O)c1cc(O)c(O)c(O)c1 | 3′ processing | 10 µM | 95%
COC(=O)c1cc(O)c(O)c(O)c1 | 3′ processing | 62.5 µM | 29.8%
COC(=O)[C@H](CCCCNC(=O)/C=C/c1ccc(O)c(O)c1)NC(=O)/C=C/c1ccc(O)c(O)c1 | 3′ processing | 10 µM | 100%
C#CCNC/C(=C\c1cc(Cl)ccc1OCc1ccccc1)C(=O)OC | - | 10 µM | 9.1%
CC(C)[C@H](NC(=O)[C@H](Cc1ccccc1)NC(=O)[C@H](CCCN=C(N)N)NC(=O)[C@@H](N)Cc1c[nH]c2ccccc12)C(=O)N[C@@H](CO)C(=O)N[C@@H](CCC(N)=O)C(=O)O | - | 0.39 µM | 25%
O=C(/C=C(\O)C(=O)O)NCc1ccc(F)cc1 | strand transfer | 70 µM | 80%
C#CCNCC(C(=O)OCCCC)C(O)c1cc(Cl)ccc1O | - | 10 µM | 19.4%
COC(=O)C(CNC(=O)/C=C/c1ccc(O)c(O)c1)NC(=O)/C=C/c1ccc(O)c(O)c1 | 3′ processing | 10 µM | 98%
O=S(=O)(Nc1cc(Cl)c2ccc(/C=C/c3ccc(O)cc3)nc2c1O)c1ccccc1 | strand transfer | 0.05 µM | 101.4%
COC(=O)C(CCCCNC(=O)/C=C/c1cc(O)c(O)c(O)c1)NC(=O)/C=C/c1cc(O)c(O)c(O)c1 | 3′ processing | 10 µM | 100%
Cc1cccc(CNC(=O)/C=C(\O)C(=O)O)c1 | strand transfer | 70 µM | 70%
C#CCNCC(C(=O)OC)C(O)c1cc(Cl)ccc1OCc1ccccc1 | - | 10 µM | 51.7%
COc1cccc2cc(CN(C(=O)c3ccccc3)C3CCCCC3)c(=O)[nH]c12 | strand transfer / absorbance | 20 µM | 30%
COC(=O)C(CNCc1cn([C@H]2C[C@H](n3cc(C)c(=O)[nH]c3=O)O[C@@H]2CO)nn1)C(O)c1ccccc1OCc1ccccc1 | - | 10 µM | 3.3%
COc1ccc(CNC(=O)/C=C(\O)C(=O)O)cc1 | strand transfer | 70 µM | 70%
COc1ccc(/C=C/c2ccc3c(Cl)cc(NS(=O)(=O)c4ccc(Cl)cc4)c(O)c3n2)cc1 | strand transfer | 0.05 µM | 58.2%

The last 2 rows once more:

compound	method	dose	value
COc1ccc(CNC(=O)/C=C(\O)C(=O)O)cc1	strand transfer	70 µM	70%
COc1ccc(/C=C/c2ccc3c(Cl)cc(NS(=O)(=O)c4ccc(Cl)cc4)c(O)c3n2)cc1	strand transfer	0.05 µM	58.2%